Compound potency records, mixed from different reports. Data source: NIAID ChemDB in PubChem.

Common to all: whole-cell or culture tests; species: Mycobacterium tuberculosis

MIC bound: limit read from a one-dose screen.

structure | read by | changes | endpoint | strain or isolate | tested at | cell line | result
CCOC(=O)c1ccc2c(c1)C(=O)c1nc3ccccc3c(=O)n1-2 | - | - | MIC | MDR 10038 | - | - | <0.4 µg/mL
O=C1NC(=O)/C(=C/c2ccc(C(F)(F)F)cc2)N1 | - | - | EC50 | H37Rv | - | - | <6.25 µg/mL
CNC(=O)c1cc(C(=O)NC)c[n+](Cc2c(Cl)cccc2Cl)c1.[Br-] | BACTEC | - | MIC bound | H37Rv | - | - | >12.5 µg/mL
N#Cc1ccc2c(=O)c3ccccc3oc2c1 | - | - | inhibition | H37Rv | 4 µg/mL | - | inactive
C/C(=C\c1ccccc1)C1NC(=S)NC1=O | - | - | inhibition | H37Rv | 6.25 µg/mL | - | 95%
CO[C@H]1/C=C/O[C@@]2(C)Oc3c(C)c(O)c4c(O)c(cc(OCC(=O)NC(C)(C)C)c4c3C2=O)NC(=O)/C(C)=C\C=C\[C@H](C)[C@H](O)[C@@H](C)[C@@H](O)[C@@H](C)[C@H](OC(C)=O)[C@@H]1C | - | - | MIC | H37Rv | - | - | 0.09 µg/mL
Cl.O=C1CSC2(CCN(CCCN3c4ccccc4Sc4ccc(Cl)cc43)CC2)N1 | BACTEC | - | inhibition | H37Rv | 12.5 µg/mL | - | 90%
CC(C)(C)c1ccc(NC(=O)c2cc(Cl)ccc2O)cc1 | - | - | MIC | My 331/88 | - | - | 16 µM
Cc1ccc(NCCN(C)C)c2c(=O)c3ccccc3sc12 | BACTEC | - | inhibition | H37Rv | 12.5 µg/mL | - | 99%
N#Cc1ccc(Cn2ccc3c4c(N)nc(N)nc4ccc32)cc1 | resazurin | - | EC50 | ATCC 2724 | - | - | 5.88 µM
CC(C)(C)NC(=O)C1c2ccccc2CCN1c1cc2c(=O)c(C(=O)O)c3n(c2cc1[N+](=O)[O-])CS3 | agar | MDR-TB | MIC | H37Rv | - | - | 1.53 µM
CCCCCc1ccc(NC(=O)c2cc(Br)ccc2O)cc1 | - | - | MIC | My 331/88 | - | - | 8 µM
CCCCCOc1ccccc1NC(=O)OCC[N+]1(Cc2ccccc2)CCCCC1 | - | - | MIC | My 331/88 | - | - | 16 µM
CO[C@H]1/C=C/O[C@@]2(C)Oc3c(C)c(O)c4c(O)c(c(/C=N/N5CCN(C)CC5)c(O)c4c3C2=O)NC(=O)/C(C)=C\C=C\[C@H](C)[C@H](O)[C@@H](C)[C@@H](O)[C@@H](C)[C@H](OC(C)=O)[C@@H]1C | - | - | MIC | H37Rv | - | - | 0.06 µg/mL
Cc1ccc(NCCN(C)C)c2c(=O)c3c(O)cccc3sc12 | BACTEC | - | inhibition | H37Rv | 12.5 µg/mL | - | 100%
Cc1cccc2c(=O)n3c(nc12)C(=O)c1ccccc1-3 | - | - | MIC | H37Rv | - | - | >5 µg/mL
CC[C@H]1OC(=O)[C@H](C)C(=O)[C@H](C)[C@@H](O[C@@H]2O[C@H](C)C[C@H](N(C)C)[C@H]2O)[C@](C)(OC)C[C@@H](C)C(=O)[C@H](C)[C@H]2N(NCCCc3ccnc4ccccc34)C(=O)O[C@]12C | - | - | MIC | Isolate 900145 | - | - | 40 µg/mL
O=C(O)c1c2n(c3cc(F)c(N4CCC(N5CCCCC5)CC4)cc3c1=O)CS2 | agar | - | MIC | H37Rv | - | - | 7.49 µM
CC1COc2c(N3CCN(C)CC3)c(F)cc3c(=O)c(C(=O)O)cn1c23 | - | - | MIC | H37RV (ETH-R) | - | - | 1.25 µg/mL
COc1ccc(-c2nc(Nc3ccccc3)sc2Cc2sc(Nc3ccccc3)nc2-c2ccc(OC)cc2)cc1 | resazurin | - | MIC bound | H37Rv | - | - | >6.25 µg/mL
NNC(=O)c1ccncc1 | - | - | MIC | H37Rv | - | - | 0.065 µg/mL
O=C(O)c1ccc2c(=O)c3ccccc3oc2c1 | - | - | inhibition | H37Rv | 16 µg/mL | - | inactive
CCC/C=C/C=C/C(=O)O[C@H]1[C@H](C)[C@@]2(O)[C@@H]3C=C(C)C(=O)[C@H]3CC(COC(C)=O)=C[C@@H]2[C@H]2C(C)(C)[C@@]12OC(C)=O | BACTEC | - | MIC | H37Rv | - | - | ≥12.5 µg/mL
CCCCCCCCN1C(=O)C=C(C)C1=O | - | - | MIC | H37Ra | - | - | ≤20 µg/mL
CCCCCN(CCCCC)C(=O)COc1cc2c(O)c3c(O)c(C)c4c(c13)C(=O)[C@@](C)(O/C=C/[C@H](OC)[C@@H](C)[C@@H](OC(C)=O)[C@H](C)[C@H](O)[C@H](C)[C@@H](O)[C@@H](C)/C=C/C=C(/C)C(=O)N2)O4 | - | - | MIC | H37Rv | - | - | 0.3 µg/mL
CCN(CC)C(=S)S[Se](SC(=S)N(CC)CC)(SC(=S)N(CC)CC)SC(=S)N(CC)CC | - | - | MIC | EMB-R | - | - | 1.6 µg/mL
CCN(C(=O)COc1cc2c(O)c3c(O)c(C)c4c(c13)C(=O)[C@@](C)(O/C=C/[C@H](OC)[C@@H](C)[C@@H](OC(C)=O)[C@H](C)[C@H](O)[C@H](C)[C@@H](O)[C@@H](C)/C=C/C=C(/C)C(=O)N2)O4)N(C)C | - | - | MIC | H37Rv | - | - | 0.18 µg/mL
Cc1cn(C[C@H]2CN(c3ccc(N4CCN(C(=O)CNC(=O)C(Cl)Cl)CC4)c(F)c3)C(=O)O2)nn1 | visual reading | - | MIC | H37Rv | - | - | ≤0.015 µM
Cc1cc2oc3ccc([N+](=O)[O-])cc3c(=O)c2cc1[N+](=O)[O-] | - | - | inhibition | H37Rv | 32 µg/mL | - | inactive
CO[C@H]1/C=C/O[C@@]2(C)Oc3c(C)c(O)c4c(O)c(cc(OCC(=O)N5CCOCC5C)c4c3C2=O)NC(=O)/C(C)=C\C=C\[C@H](C)[C@H](O)[C@@H](C)[C@@H](O)[C@@H](C)[C@H](OC(C)=O)[C@@H]1C | - | - | MIC | H37Rv | - | - | 0.09 µg/mL
NCCNCC(O)CO | resazurin | - | MIC bound | H37Rv | - | - | >6.25 µg/mL
O=C(O)c1c2n(c3cc(F)c(N4CCN(C(=O)C5COc6ccccc6O5)CC4)cc3c1=O)CS2 | agar | - | MIC | H37Rv | - | - | 6.29 µM
O=c1c(Cl)cc2nc3ccccc3sc-2c1Cl | resazurin | - | MIC | H37Rv | - | - | 12.5 µg/mL
Nc1nc(N)c2c(ccc3c2ccn3Cc2cccc([N+](=O)[O-])c2)n1 | resazurin | - | EC50 | ATCC 2724 | - | - | 4.06 µM
NNC(=O)c1ccncc1 | resazurin | INH RIF resistant | MIC | Clinical isolate 109 | - | - | 2 µg/mL
CCCCCCCCCCN1C(=O)C=CC1=O | - | - | MIC | H37Rv | - | - | ≤20 µg/mL
CCCCCC[N+]1(CCOC(=O)Nc2ccccc2OCCCCC)CCCCC1 | - | - | MIC | My 331/88 | - | - | 32 µM
NC(=S)N/N=C/c1cc(Cl)c2nc(-c3ccccc3)ccc2c1 | BACTEC | - | MIC bound | H37Rv | - | - | ≤12.5 µg/mL
CO[C@H]1/C=C/O[C@@]2(C)Oc3c(C)c(O)c4c(O)c(c5c(c4c3C2=O)NC2(CCN(CC(C)C)CC2)N=5)=NC(=O)/C(C)=C\C=C\[C@H](C)[C@H](O)[C@@H](C)[C@@H](O)[C@@H](C)[C@H](OC(C)=O)[C@@H]1C | - | - | MIC50 | 16 strains (rifampicin-susceptible) | - | - | 0.025 µg/mL
COc1cc2c(c3c1c(=O)c1ccccc1n3C)C=C([N+](=O)[O-])C(C)(C)O2 | BACTEC | - | MIC bound | H37Rv | - | - | >12.5 µg/mL
O=C1C=CC(=O)N1c1ccc(N2CCCCC2)cc1 | - | - | MIC | H37Ra | - | - | ≤20 µg/mL
Cc1onc(-c2c(F)cccc2F)c1C(=O)N1CCN(c2cc3c(=O)c(C(=O)O)c4n(c3cc2[N+](=O)[O-])CS4)CC1 | agar | - | MIC | H37Rv | - | - | 5.36 µM
O=C1c2ccccc2-n2c1nc1ccc(Br)cc1c2=O | - | - | MIC | MDR 10038 | - | - | 1.3 µg/mL
O=C1NC(=S)N/C1=C/c1cccc(OCCc2ccccc2)c1 | - | - | EC50 | H37Rv | - | - | <6.25 µg/mL
CCCCc1ccc(NC(=O)c2cc(Br)cc(Br)c2O)cc1 | - | - | MIC | My 331/88 | - | - | 16 µM
Cc1cc([N+](=O)[O-])cc2c(=O)c3cc([N+](=O)[O-])ccc3oc12 | - | - | inhibition | H37Rv | 8 µg/mL | - | inactive
NNC(=O)c1ccncc1 | - | - | MIC | H37Rv | - | - | 0.05 µg/mL
CC1COc2c(N3CCN(C)CC3)c(F)cc3c(=O)c(C(=O)O)cn1c23 | BACTEC | - | MIC | 08-211 | - | - | 0.125 µg/mL
O=C(O)c1c2n(c3cc([N+](=O)[O-])c(N4CCSCC4)cc3c1=O)CS2 | agar | - | MIC | H37Rv | - | - | 4.12 µM
Cc1ccccc1Cn1ccc2c3c(N)nc(N)nc3ccc21 | resazurin | - | EC50 | ATCC 2724 | - | - | 6.03 µM
CN1CCN(c2cc3c(cc2F)C(=O)c2nc4ccccc4c(=O)n2-3)CC1 | - | - | MIC | H37Rv | - | - | 10 µg/mL
CCCCCCC[N+]1(CCOC(=O)Nc2ccccc2OCCCCCC)CCCCC1 | - | - | MIC | My 331/88 | - | - | 8 µM
C=C1CC(=O)N(CCCCCCCCC)C1=O | - | - | MIC | H37Rv | - | - | ≤20 µg/mL
CCOC(=O)c1cc(C2(O)CCN(Cc3ccccc3)C2=O)c(-c2cc(C)no2)[nH]1 | resazurin | - | inhibition | H37Rv | 6.25 µg/mL | - | -7%
O=C(NCC(=O)N1CCN(c2ccc(N3C[C@H](Cn4ccnn4)OC3=O)cc2F)CC1)C1=CC=C([N+](=O)[O-])C1 | broth dilution / visual reading | Isoniazid-resistant | MIC | SRI 1369 | - | - | 0.057–0.12 µM
CCCNc1nc2c(s1)c1c(O)c3c(O)c(C)c4c(c32)C(=O)[C@@](C)(O/C=C/[C@H](OC)[C@@H](C)[C@@H](OC(C)=O)[C@H](C)[C@H](O)[C@H](C)[C@@H](O)[C@@H](C)/C=C/C=C(/C)C(=O)N1)O4 | - | - | MIC | H37Rv | - | VERO | 0.05 µg/mL
O=C1NC(=S)N/C1=C/c1cccc(OCc2ccc(Cl)cc2)c1 | - | - | inhibition | H37Rv | 6.25 µg/mL | - | 95%
CCCCCCCCc1ccc(NC(=O)c2cc(Cl)ccc2O)cc1 | - | - | MIC | My 331/88 | - | - | 4 µM
O=C1c2cc(F)cc(F)c2-n2c1nc1ccccc1c2=O | - | - | MIC | H37Rv | - | - | 1 µg/mL
COC(=O)c1ccc2oc3c(C(=O)OC)cc([N+](=O)[O-])cc3c(=O)c2c1 | - | - | inhibition | H37Rv | 4 µg/mL | - | inactive
CC(C)=CCC1=C(O)C(=O)C(CC=C(C)C)=C(O)C1=O | BACTEC | - | MIC bound | H37Rv | - | - | >128 µg/mL
CCCCCCCC[N+]1(CCOC(=O)Nc2ccccc2OCCCCC)CCCCC1 | - | - | MIC | My 331/88 | - | - | 8 µM
Cc1c([N+](=O)[O-])ccc2oc3ccccc3c(=O)c12 | - | - | inhibition | H37Rv | 4 µg/mL | - | inactive
CCCCCCCc1ccc(NC(=O)c2cc(Br)ccc2O)cc1 | - | - | MIC | My 331/88 | - | - | 8 µM
CNC(=O)Oc1cccc(NC(=S)SC)c1 | BACTEC | - | inhibition | H37Rv | 128 µg/mL | - | 100%
CC[C@@H](CO)NCCN[C@@H](CC)CO | - | - | MIC | H37RV (DL8280-R) | - | - | 1.25 µg/mL
Nc1ncnc2c1nc1n2C2OC(CO)C(O)C2O1 | - | - | inhibition | H37Rv | 6.25 µg/mL | - | -2%
CCOC(=O)CC(=O)NCC(=O)N1CCN(c2ccc(N3C[C@H](Cn4ccnn4)OC3=O)cc2F)CC1 | visual reading | - | MIC | H37Rv | - | - | ≤0.091 µM
C[C@H](N)C(=O)N[C@@H](Cc1ccccc1)C(=O)N1CCC[C@H]1C(=O)Nc1ccc2ccccc2c1 | BACTEC | - | MIC bound | H37Rv | - | - | >12.5 µg/mL
COc1ccc2cc1-c1cc(ccc1O)C[C@H]1c3cc4c(cc3CCN1C)Oc1c(OC)cc3c(c1O4)[C@@H](C2)N(C)CC3 | resazurin | - | MIC | H37Ra | - | - | 3.1 µg/mL
CCOC(=O)C1CN(Cc2ccccc2)C(COC)C1=O | resazurin | - | inhibition | H37Rv | 6.26 µg/mL | - | -9%
CCCCN(CCCC)N(CC)C(=O)COc1cc2c(O)c3c(O)c(C)c4c(c13)C(=O)[C@@](C)(O/C=C/[C@H](OC)[C@@H](C)[C@@H](OC(C)=O)[C@H](C)[C@H](O)[C@H](C)[C@@H](O)[C@@H](C)/C=C/C=C(/C)C(=O)N2)O4 | - | - | MIC | H37Rv | - | - | 0.09 µg/mL
O=c1[nH]n2c(=O)cc[nH]c2c1-c1nnns1 | BACTEC | - | MIC bound | H37Rv | - | - | >12.5 µg/mL
CCCCCCc1ccc(NC(=O)c2cc(Br)ccc2O)cc1 | - | - | MIC | My 331/88 | - | - | 16 µM
CCc1ccc(C(=O)N/N=C(\C)[C@]2(O)Cc3c(O)c4c(c(O)c3[C@H](O[C@H]3C[C@H](N)[C@H](O)[C@H](C)O3)C2)C(=O)c2c(OC)cccc2C4=O)cc1 | - | - | MIC | TAC-R | - | - | 12.5 µg/mL
O=C1NC(=O)/C(=C/c2cccc(OCc3ccccc3)c2)N1 | - | - | inhibition | H37Rv | 6.25 µg/mL | - | 86%

The first 5 rows once more:

| structure | read by | changes | endpoint | strain or isolate | tested at | cell line | result |
|---|---|---|---|---|---|---|---|
| CCOC(=O)c1ccc2c(c1)C(=O)c1nc3ccccc3c(=O)n1-2 | - | - | MIC | MDR 10038 | - | - | <0.4 µg/mL |
| O=C1NC(=O)/C(=C/c2ccc(C(F)(F)F)cc2)N1 | - | - | EC50 | H37Rv | - | - | <6.25 µg/mL |
| CNC(=O)c1cc(C(=O)NC)c[n+](Cc2c(Cl)cccc2Cl)c1.[Br-] | BACTEC | - | MIC bound | H37Rv | - | - | >12.5 µg/mL |
| N#Cc1ccc2c(=O)c3ccccc3oc2c1 | - | - | inhibition | H37Rv | 4 µg/mL | - | inactive |
| C/C(=C\c1ccccc1)C1NC(=S)NC1=O | - | - | inhibition | H37Rv | 6.25 µg/mL | - | 95% |

Rows are shuffled and stem from different studies. "inactive" is the filed call at that dose; no cut-off is given. ECn is the concentration giving n% inhibition of infection, replication or growth. Blank or dashed fields: not listed here. Percent inhibition refers to the dose given; in toxicity tests it is the harm to the cells. a–b is a range or a potency band. A number after MIC or MFC names an inhibition level or a share of isolates.